Legend:
Test in all cases: Ki determination for transition-state analogues
Assay type in all cases: biochemical
Settings in all cases: read-out: Ki,MTDIA; 0.8 mM MTA
[1] = target: VcMTANA113P/V153I (VcMTANDOUBLE) (Vibrio cholerae serotype O1, UniProt Q9KPI8, A113P/V153I)
[2] = target: VcMTANA113P/V153I/R158G (Vc[…]) (Vibrio cholerae serotype O1, UniProt Q9KPI8, A113P/R158G/V153I)
[3] = target: VcMTANA113P (Vibrio cholerae serotype O1, UniProt Q9KPI8, A113P)

For `CSC[C@H]1CN(Cc2c[nH]c3c(N)ncnc23)C[C@@H]1O` [MTDIA, 4′-deaza-1′-aza-2′-deoxy-1′-(9-[^14C]methylene)-Immucillin-A], the Ki [1] was 0.003 ± 0.0005 nM, the Ki [2] was 0.166 ± 0.022 nM and the Ki [3] was 0.062 ± 0.007 nM.
